This is a selection; strong and weak results do not stand in their true shares. Inconclusive results are not listed. Where a call stands in place of a potency, no number is given. Activity calls are given as the source filed them. Calls follow the shape of the full dose curve; tested in HEK293 cells.
Assay: qHTS for inhibitors of binding or entry into cells for Marburg Virus
Conditions: Marburg virus pseudotyped entry inhibition, cell reporter; series mostly up to 46.1 µM
Potency is read from the fitted curve at half-maximal effect.

| Structure (SMILES) | Potency |
| --- | --- |
| N/C(=N\O)c1c(N)no[n+]1[O-] | inactive |
| O=C(OC1CN2CCC1CC2)C1c2ccccc2C=Cc2ccccc21 (configuration not stated) | active: 18.4 µM |
| O=C1C(O)=C([N+](=O)[O-])C(=O)C(O)=C1[N+](=O)[O-] | inactive |
| O=P1(N(CCCl)CCCl)SCCCS1 | inactive |
| O=C(NCC1(N2CCCCC2)CCCCC1)c1cccc(C(F)(F)F)c1 | active: 10 µM |
| O=[N+]([O-])c1cc([N+](=O)[O-])c(OC2CCCCC2O)c([N+](=O)[O-])c1 (configuration not stated) | inactive |
| O=C(OC1CN2CCC1CC2)c1ccc([N+](=O)[O-])cc1 (configuration not stated) | inactive |
